Measured values from several laboratories, pooled; numbers as filed in NIAID ChemDB.

Shared fields: enzyme or target tests; agent: HIV-1; target: Reverse transcriptase

a–b is a range or a potency band. ICn: concentration for n% inhibition. Blank or dashed fields: not listed here. Neighbouring rows are from separate reports.

CCc1ccc(-n2c(Br)nnc2SCC(=O)Nc2ccc(C(=O)NCC(C)O)cc2Cl)c2ccccc12 ; method: nucleotide incorporation / radiometric ; read-out: IC50 ; changes: RT-Y188L ; value: 0.05–0.1 µM
CC(C)(C#Cc1ccc(NC(=O)CSc2nnnn2-c2ccc(C3CC3)cc2Cl)c(Cl)c1F)NC(=O)c1cc[n+]([O-])cc1 ; method: PicoGreen / fluorescence ; read-out: IC50 ; changes: RT-K103 Y181C ; value: <1 µM
CCN1c2ncc(CCOc3ccc(-c4cscn4)cc3)cc2C(=O)N(C)c2cccnc21 ; strain: IIIB ; method: nucleotide incorporation / radiometric ; read-out: IC50 ; value: <0.05 µM
CC(C)(C)c1ccc(-n2nnnc2SCC(=O)Nc2ccc(OCC(=O)NCc3ccc(N)cc3)cc2Cl)c(Cl)c1 ; method: PicoGreen / fluorescence ; read-out: IC50 ; changes: RT-K103 Y181C ; value: <1 µM
CCc1cc(CCc2nc3ccccc3o2)c(=O)[nH]c1C ; method: nucleotide incorporation ; read-out: IC50 ; changes: RT-K103N Y181C Y188C ; value: >117 µM
CC(=O)Nc1ccc2c(c1)CN(c1nn3c(C4CC4)nnc3c3ccccc13)CC2 ; strain: 98US_MSC5016 ; method: RT activity / fluorescence ; read-out: IC50 ; value: 0.17 µM
O=C(CSc1nnc(Br)n1-c1ccc(C2CC2)c2ccccc12)Nc1ccc(C(=O)O)cc1Cl ; method: nucleotide incorporation / radiometric ; read-out: IC50 ; value: <0.05 µM
CC(CC(=O)O)NC(=O)COC(C)(C)C#Cc1ccc(NC(=O)CSc2nnnn2-c2ccc(C(C)(C)C)cc2Cl)c(Cl)c1 ; strain: WT ; method: PicoGreen / fluorescence ; read-out: IC50 ; value: <1 µM
CCc1ccc(-n2c(CF)nnc2SCC(=O)Nc2ccc(C(=O)O)cc2Cl)c2ccccc12 ; method: nucleotide incorporation / radiometric ; read-out: IC50 ; changes: RT-Y181C ; value: <0.05 µM
O=C(O)Cc1ccc(-c2ccc(NC(=O)CSc3nnnn3-c3ccc(OC(F)(F)F)cc3Cl)c(Cl)c2)cc1 ; strain: WT ; method: PicoGreen / fluorescence ; read-out: IC50 ; value: <1 µM
CCN1c2ncc(CCOc3ccc(S(=O)(=O)NCC(=O)O)c4ccccc34)cc2C(=O)N(C)c2cccnc21 ; method: nucleotide incorporation / radiometric ; read-out: IC50 ; changes: RT-V106A ; value: 0.1–1 µM
Cc1ccc(-n2nnnc2SCC(=O)Nc2ccc(-c3ccc(CC(=O)O)cc3)cc2[N+](=O)[O-])c(Cl)c1 ; method: PicoGreen / fluorescence ; read-out: IC50 ; changes: RT-K103 Y181C ; value: <1 µM
NS(=O)(=O)c1ccc(NC(=O)CSc2nncn2-c2ccc(C3CC3)c3ccccc23)c(Cl)c1 ; method: nucleotide incorporation / radiometric ; read-out: IC50 ; changes: RT-Y188L ; value: >0.1 µM
CC(C)(C#Cc1ccc(NC(=O)CSc2nnnn2-c2ccc(C3CC3)cc2Cl)c(Cl)c1)OCCNC1CC1 ; strain: WT ; method: PicoGreen / fluorescence ; read-out: IC50 ; value: <1 µM
CCN1c2ncc(CCOc3ccc(CC(=O)NN)c4ccccc34)cc2C(=O)N(C)c2cccnc21 ; strain: WT ; method: nucleotide incorporation / radiometric ; read-out: IC50 ; value: <0.1 µM
CC(C)(C#Cc1ccc(NC(=O)CSc2nnnn2-c2ccc(C3CC3)cc2Cl)c(Cl)c1)NC(=O)c1csnn1 ; strain: WT ; method: PicoGreen / fluorescence ; read-out: IC50 ; value: <1 µM
CCN1c2ncc(CCOc3ccc(-c4cccc(CC(=O)O)c4)cc3)cc2C(=O)N(C)c2cccnc21 ; strain: IIIB ; method: nucleotide incorporation / radiometric ; read-out: IC50 ; changes: RT-K103N Y181C ; value: >0.1 µM
CCc1ccc(-n2c(Br)nnc2SCC(=O)Nc2ccc(C(=O)N3CCC(CN)CC3)cc2Cl)c2ccccc12 ; method: nucleotide incorporation / radiometric ; read-out: IC50 ; changes: RT-Y181C ; value: <0.05 µM
CC(C)(C#Cc1ccc(NC(=O)CSc2nnnn2-c2cc(C(F)(F)F)ccc2Cl)c(Cl)c1)OCCN1CCCC1 ; method: PicoGreen / fluorescence ; read-out: IC50 ; changes: RT-K103 Y181C ; value: <1 µM
Cc1cc(S(N)(=O)=O)ccc1NC(=O)CSc1nnc(Br)n1-c1ccc(C2CCC2)c2ccccc12 ; method: nucleotide incorporation / radiometric ; read-out: IC50 ; changes: RT-Y188L ; value: >0.1 µM
CC(C)(C)c1ccc(-n2nnnc2SCC(=O)Nc2ccc(C(=O)NCc3cccnc3)cc2Cl)c(Cl)c1 ; method: PicoGreen / fluorescence ; read-out: IC50 ; changes: RT-K103 Y181C ; value: <1 µM
CCN1c2ncc(CCOc3ccc(C(=O)O)c4ccccc34)cc2C(=O)N(C)c2ccc(C)nc21 ; method: nucleotide incorporation / radiometric ; read-out: IC50 ; changes: RT-K103N Y181C ; value: 0.1–1 µM
CC(C)(C#Cc1ccc(NC(=O)CSc2nnnn2-c2cc(C3CC3)ccc2Cl)c(Cl)c1)NC(=O)c1cc[n+]([O-])cc1 ; method: PicoGreen / fluorescence ; read-out: IC50 ; changes: RT-K103 Y181C ; value: <1 µM
CCOC(=O)N1CCC(NC(=O)c2ccc(NC(=O)CSc3nnc(Br)n3-c3ccc(CC)c4ccccc34)c(Cl)c2)CC1 ; method: nucleotide incorporation / radiometric ; read-out: IC50 ; changes: RT-Y181C ; value: <0.05 µM
CC(C)(C#Cc1ccc(NC(=O)CSc2nnnn2-c2ccc(C3CC3)cc2Cl)c(Cl)c1)NC(=O)c1ccncc1 ; method: PicoGreen / fluorescence ; read-out: IC50 ; changes: RT-K103 Y181C ; value: <1 µM
COC(=O)[C@@H](NC(=O)c1ccc(NC(=O)CSc2nnc(Br)n2-c2ccc(C3CC3)c3ccccc23)c(Cl)c1)C(C)C ; method: nucleotide incorporation / radiometric ; read-out: IC50 ; changes: RT-Y188L ; value: 0.05–0.1 µM
CCN1c2ncc(CCOc3ccc(CC(C)C(=O)O)c4ccccc34)cc2C(=O)Nc2c(C)ccnc21 ; method: nucleotide incorporation / radiometric ; read-out: IC50 ; changes: RT-Y188L ; value: >1 µM
NS(=O)(=O)c1ccc(NC(=O)CSc2nnc(Br)n2-c2ccc(C3CC3)cc2)c(Cl)c1 ; method: nucleotide incorporation / radiometric ; read-out: IC50 ; value: <0.05 µM
CCN1c2ncc(CCOc3ccc(C(=O)O)c4c3CCCC4)cc2C(=O)N(C)c2ccc(Cl)nc21 ; method: nucleotide incorporation / radiometric ; read-out: IC50 ; changes: RT-K103N Y181C ; value: 0.1–1 µM
CCc1ccc(-n2c(Br)nnc2SCC(=O)Nc2ccc(C(=O)NCCOC)cc2Cl)c2ccccc12 ; method: nucleotide incorporation / radiometric ; read-out: IC50 ; value: <0.05 µM
CC(=O)Nc1cc2c(cc1OC(F)(F)F)CCN(c1nn3c(C)nnc3c3ccccc13)C2 ; strain: KER2008 ; method: RT activity / fluorescence ; read-out: IC90 ; value: 0.96 µM
Cc1cc(S(N)(=O)=O)ccc1NC(=O)C(C)Sc1nnc(Br)n1-c1c(C)ccc2ccccc12 ; method: nucleotide incorporation / radiometric ; read-out: IC50 ; value: <0.05 µM
CCN1c2ncc(CCOc3ccc(-c4ccc(C(=O)O)o4)cc3)cc2C(=O)N(C)c2cccnc21 ; strain: IIIB ; method: nucleotide incorporation / radiometric ; read-out: IC50 ; changes: RT-K103N Y181C ; value: 0.05–0.1 µM
CC(C)(C)c1ccc(-n2nnnc2SCC(=O)Nc2ccc(OCC(=O)NCCc3ccc(O)cc3)cc2Cl)c(Cl)c1 ; strain: WT ; method: PicoGreen / fluorescence ; read-out: IC50 ; value: <1 µM
CCN1c2ncc(CCOc3ccc(C(=O)NNCC(=O)O)cc3C)cc2C(=O)N(C)c2cccnc21 ; strain: IIIB ; method: nucleotide incorporation / radiometric ; read-out: IC50 ; value: <0.05 µM
O=C(CSc1nnc(Br)n1-c1cccc2c(OCC3CC3)cccc12)Nc1ccc(C(=O)O)cc1Cl ; method: nucleotide incorporation / radiometric ; read-out: IC50 ; changes: RT-Y181C ; value: >0.1 µM
CC(CC(=O)O)NC(=O)COc1ccc(NC(=O)CSc2nnnn2-c2ccc(C(C)(C)C)cc2Cl)c(Cl)c1 ; method: PicoGreen / fluorescence ; read-out: IC50 ; changes: RT-K103 Y181C ; value: <1 µM
CCN1c2ncc(CCOc3ccc(-c4ccc(C)nc4)cc3C)cc2C(=O)N(C)c2cccnc21 ; strain: IIIB ; method: nucleotide incorporation / radiometric ; read-out: IC50 ; changes: RT-K103N Y181C ; value: <0.05 µM
O=[N+]([O-])c1ccc2c(c1)CN(c1nn3c(C(F)F)nnc3c3ccccc13)CC2 ; strain: IIIB ; method: RT activity / fluorescence ; read-out: IC50 ; value: 5.45 µM
CN(C)C(=O)COC(C)(C)C#Cc1ccc(NC(=O)CSc2nnnn2-c2ccc(C(C)(C)C)cc2Cl)c(Cl)c1 ; strain: WT ; method: PicoGreen / fluorescence ; read-out: IC50 ; value: <1 µM
CCN1c2ncc(CCOc3ccc(-c4cc(C(=O)O)ccc4OC)cc3C)cc2C(=O)N(C)c2cccnc21 ; strain: IIIB ; method: nucleotide incorporation / radiometric ; read-out: IC50 ; changes: RT-K103N Y181C ; value: >0.1 µM
c1ccc2c(c1)CN(c1nn3c(C4CC4)nnc3c3ccccc13)C2 ; strain: IIIB ; method: RT activity / fluorescence ; read-out: IC50 ; value: >100 µM
CCN1c2ncc(CCOc3ccc(-c4cccc(C(=O)O)c4)cc3)cc2C(=O)N(C)c2cccnc21 ; strain: IIIB ; method: nucleotide incorporation / radiometric ; read-out: IC50 ; changes: RT-K103N Y181C ; value: >0.1 µM
CCc1ccc(-n2c(Br)nnc2SCC(=O)Nc2ccc(C(=O)N3CCC(O)CC3)cc2Cl)c2ccccc12 ; method: nucleotide incorporation / radiometric ; read-out: IC50 ; changes: RT-Y188L ; value: >0.1 µM
CC(C)(C)c1ccc(-n2nnnc2SCC(=O)Nc2ccc(OCC(=O)Nc3ccccc3O)cc2Cl)c(Cl)c1 ; strain: WT ; method: PicoGreen / fluorescence ; read-out: IC50 ; value: <1 µM
Cc1ccc(-n2c(SCC(=O)Nc3ccc(S(=O)(=O)NC(C)C(=O)O)cc3Cl)nnc2C(F)F)c2c1CCCC2 ; method: nucleotide incorporation / radiometric ; read-out: IC50 ; changes: RT-Y181C ; value: >0.1 µM
CCN1c2ncc(CCOc3ccc(C(=O)O)c4c3CCC4)cc2C(=O)N(C)c2cccnc21 ; strain: WT ; method: nucleotide incorporation / radiometric ; read-out: IC50 ; value: <0.1 µM
Cc1ccc(-n2c(C)nnc2SCC(=O)Nc2ccc(S(N)(=O)=O)cc2Cl)c2c1CCCC2 ; method: nucleotide incorporation / radiometric ; read-out: IC50 ; value: <0.05 µM
CCN1c2ncc(CCOc3ccc(-c4ccc[n+]([O-])c4)cc3C)cc2C(=O)N(C)c2cccnc21 ; strain: IIIB ; method: nucleotide incorporation / radiometric ; read-out: IC50 ; changes: RT-K103N Y181C ; value: <0.05 µM
CC(C)(C#Cc1ccc(NC(=O)CSc2nnnn2-c2ccc(C3CC3)cc2Cl)c(Cl)c1)C(=O)NCc1cc[n+]([O-])cc1 ; method: PicoGreen / fluorescence ; read-out: IC50 ; changes: RT-K103 Y181C ; value: <1 µM
CCc1ccc(-n2c(C)nnc2SCC(=O)Nc2ccc(S(N)(=O)=O)cc2Cl)c2c1CCCC2 ; method: nucleotide incorporation / radiometric ; read-out: IC50 ; value: <0.05 µM
O=C(CSc1nnnn1-c1ccc(C2CC2)cc1Cl)Nc1ccc(C#CCCN2CCNCC2)cc1Cl ; method: PicoGreen / fluorescence ; read-out: IC50 ; changes: RT-K103 Y181C ; value: <1 µM
CCc1ccc(-n2c(SCC(=O)Nc3ccc(S(N)(=O)=O)cc3C)nnc2C(F)F)c2ccccc12 ; method: nucleotide incorporation / radiometric ; read-out: IC50 ; value: <0.05 µM
CC(C)(C#Cc1ccc(NC(=O)CSc2nnnn2-c2cc(C(F)(F)F)ccc2Cl)c(Cl)c1)OCCOc1ccncc1 ; method: PicoGreen / fluorescence ; read-out: IC50 ; changes: RT-K103 Y181C ; value: <1 µM
CC(C)[C@H](NC(=O)c1ccc(NC(=O)CSc2nnc(Br)n2-c2ccc(C3CC3)c3ccccc23)c(Cl)c1)C(=O)O ; method: nucleotide incorporation / radiometric ; read-out: IC50 ; value: 0.05–0.1 µM
CC(C)(C)c1ccc(-n2nnnc2SCC(=O)Nc2ccc(C#Cc3ccccc3)cc2Cl)c(Cl)c1 ; method: PicoGreen / fluorescence ; read-out: IC50 ; changes: RT-K103 Y181C ; value: <1 µM
CCc1ccc(-n2c(Br)nnc2SCC(=O)Nc2ccc(S(N)(=O)=O)cc2Cl)c2ccccc12 ; method: nucleotide incorporation / radiometric ; read-out: IC50 ; value: <0.05 µM

The last 4 rows once more:

SMILES | strain | method | read-out | changes | value
CC(C)(C#Cc1ccc(NC(=O)CSc2nnnn2-c2cc(C(F)(F)F)ccc2Cl)c(Cl)c1)OCCOc1ccncc1 |  | PicoGreen / fluorescence | IC50 | RT-K103 Y181C | <1 µM
CC(C)[C@H](NC(=O)c1ccc(NC(=O)CSc2nnc(Br)n2-c2ccc(C3CC3)c3ccccc23)c(Cl)c1)C(=O)O |  | nucleotide incorporation / radiometric | IC50 |  | 0.05–0.1 µM
CC(C)(C)c1ccc(-n2nnnc2SCC(=O)Nc2ccc(C#Cc3ccccc3)cc2Cl)c(Cl)c1 |  | PicoGreen / fluorescence | IC50 | RT-K103 Y181C | <1 µM
CCc1ccc(-n2c(Br)nnc2SCC(=O)Nc2ccc(S(N)(=O)=O)cc2Cl)c2ccccc12 |  | nucleotide incorporation / radiometric | IC50 |  | <0.05 µM